A mixed list of measured activities; the numbers were collected in NIAID ChemDB.

Common to all: tests on isolated targets; species: HIV-1; target: Reverse transcriptase; endpoint: inhibition

a–b is a range or a potency band. Neighbouring rows are from separate reports. Inhibition is in % at the dose shown (toxicity tests: loss of growth or viability).

{"compound": "CC(C)(C)c1coc(N2C(=O)CSC2c2c(Cl)ncnc2Cl)n1", "method": "RT activity / ELISA / absorbance", "tested at": "100 µg/mL", "result": "31.14%"}
{"compound": "CCN1c2ncccc2-c2cnc(C)n2-c2ccc(-c3cn[nH]c3)nc21", "strain or isolate": "LAV", "method": "nucleotide incorporation", "tested at": "1 µM", "result": "95%"}
{"compound": "COc1c2c(c3c(c1C(=O)c1cccc(O)c1)OC(C)(C)C=C3)OC(C)(C)C=C2", "method": "RT activity / radiometric", "tested at": "200 µg/mL", "result": "10.08%"}
{"compound": "CO[C@H]1/C=C/O[C@@]2(C)Oc3c(C)c(O)c4c(c3C2=O)C(=O)C(SCCOC(=O)CCC(=O)OC[C@H]2O[C@@H](n3cc(C)c(=O)[nH]c3=O)CC2O)=C(NC(=O)/C(C)=C\\C=C\\[C@H](C)[C@H](O)[C@@H](C)[C@@H](O)[C@@H](C)[C@H](OC(C)=O)[C@@H]1C)C4=O", "strain or isolate": "IIIB", "method": "RT activity", "tested at": "300 µM", "result": "38%"}
{"compound": "COc1cc(-c2cc(OC)c3c(c2)OCO3)ccc1O", "method": "RT activity / radiometric", "tested at": "200 µg/mL", "result": "53.83%"}
{"compound": "CCN1c2ncc(COc3cc[n+]([O-])c(C(F)(F)F)c3)cc2C(=O)N(C)c2ccc(Cl)nc21", "changes": "RT-Y181C", "method": "nucleotide incorporation / radiometric", "tested at": "1 µM", "result": "89%"}
{"compound": "COc1c2c(c3c(c1C(=O)c1ccccc1)OC(C)(C)C=C3)OC(C)(C)C=C2", "method": "RT activity / radiometric", "tested at": "200 µg/mL", "result": "21.97%"}
{"compound": "Nc1cccnc1N1CCN(C(=O)c2cc3ccccc3[nH]2)CC1", "method": "nucleotide incorporation", "tested at": "100 µM", "result": "73%"}
{"compound": "O=C(OC1[C@H](OC(=O)c2cc(O)c(O)c(O)c2)CC(O)(C(=O)O)C[C@H]1OC(=O)c1cc(O)c(O)c(O)c1)c1cc(O)c(O)c(O)c1", "strain or isolate": "IIIB", "tested at": "10 µg/mL", "result": "96.7%"}
{"compound": "CC(C)=CCc1c2c(c(O)c3c1O[C@@]14C(=C[C@H]5CC1C(C)(C)O[C@]4(C/C=C(\\C)C=O)C5=O)C3=O)C=CC(C)(C)O2", "method": "nucleotide incorporation / radiometric", "tested at": "200 µg/mL", "result": "49.5%"}
{"compound": "C=C1[C@H]2CCC3C(CCC4[C@@]3(C)CCC[C@@]4(C)C(=O)O)(C2)[C@@H]1OC(C)=O", "method": "RT activity", "tested at": "200 µg/mL", "result": "11.8%"}
{"compound": "O=C(OC[C@H](OC(=O)c1ccc(O)cc1)[C@@H](COC(=O)c1ccc(O)cc1)OC(=O)c1ccc(O)cc1)c1ccc(O)cc1", "method": "nucleotide incorporation", "tested at": "50 µM", "result": ">99%"}
{"compound": "COc1cc(-c2oc3cc(O)cc(O)c3c(=O)c2O)ccc1O", "method": "RT activity / ELISA", "tested at": "200 µg/mL", "result": "56.99%"}
{"compound": "C=C(CC[C@@H](C)[C@H]1CC[C@@]2(C)C3CCC4C(C)(C)[C@@H](OC(=O)CCCCCCCCCCCCCCC)CC[C@@]45C[C@@]35CC[C@]12C)C(C)(C)O", "method": "RT activity", "tested at": "200 µg/mL", "result": "3.1%"}
{"compound": "CCN1c2ncc(Cc3cccc(O)c3)cc2C(=O)N(C)c2ccc(Cl)nc21", "changes": "RT-Y181C", "method": "nucleotide incorporation / radiometric", "tested at": "1 µM", "result": "86%"}
{"compound": "O=C(/C=C/c1ccc(O)c(O)c1)O[C@H]1[C@H](O)C[C@](O)(C(=O)O)C[C@H]1OC(=O)/C=C/c1ccc(O)c(O)c1", "strain or isolate": "IIIB", "tested at": "10 µg/mL", "result": "94.5%"}
{"compound": "CC(C)=CCC[C@]1(C)C=Cc2c(O)c3c(c(CC=C(C)C)c2O1)O[C@@]12C(=C[C@H]4CC1C(C)(C)O[C@]2(C/C=C(/C)C(=O)O)C4=O)C3=O", "method": "nucleotide incorporation / radiometric", "tested at": "200 µg/mL", "result": "90%"}
{"compound": "COC(=O)C(=O)OC1(C(=O)O)C[C@@H](OC(=O)/C=C/c2ccc(O)c(O)c2)C(O)[C@H](OC(=O)/C=C/c2ccc(O)c(O)c2)C1", "strain or isolate": "LAI", "tested at": "50 µg/mL", "result": "88%"}
{"compound": "C=C1CC23CCC4[C@@](C)(CCC[C@@]4(C)C(=O)O)C2CC[C@H]1C3", "method": "RT activity", "tested at": "200 µg/mL", "result": "97.9%"}
{"compound": "O=C1CSC(c2c(Cl)cccc2Cl)N1n1cnnc1", "method": "RT activity / ELISA / absorbance", "tested at": "100 µg/mL", "result": "61.69%"}
{"compound": "CO[C@H]1/C=C/O[C@@]2(C)Oc3c(C)c(O)c4c(c3C2=O)C(=O)C(SCCOC(=O)CCCC(=O)OC[C@@H]2O[C@H](n3cc(C)c(=O)[nH]c3=O)C[C@H]2N=[N+]=[N-])=C(NC(=O)/C(C)=C\\C=C\\[C@H](C)[C@@H]2OC(C)(C)O[C@@H]([C@@H](C)[C@H](OC(C)=O)[C@@H]1C)[C@@H]2C)C4=O", "strain or isolate": "IIIB", "method": "RT activity", "tested at": "300 µM", "result": "45%"}
{"compound": "CC(C)=CCc1c2c(c(O)c3c1O[C@@]14C(=C[C@H]5CC1C(C)(C)O[C@]4(C/C=C(\\C)CO)C5=O)C3=O)C=CC(C)(C)O2", "method": "nucleotide incorporation / radiometric", "tested at": "200 µg/mL", "result": "42.2%"}
{"compound": "CO[C@H]1O[C@H](CN2C(=O)CS[C@@H]2c2c(Cl)cccc2Cl)[C@@H](O)[C@H](O)[C@H]1O", "method": "ELISA", "tested at": "25 µg/mL", "result": "55.8%"}
{"compound": "C[C@@]12CCC[C@@](C)(C(=O)O)C1CCC13C=C(CC[C@H]4C(=O)[C@@]56CCC7[C@@](C)(CCC[C@@]7(C)C(=O)O)C5CC[C@H]4C6)[C@H](CCC12)C3", "method": "RT activity", "tested at": "200 µg/mL", "result": "47.1%"}
{"compound": "COc1cc(O)c2c(=O)cc(-c3ccc(O)cc3)oc2c1", "method": "RT activity / absorbance", "tested at": "100 µg/mL", "result": "46.2%"}
{"compound": "CC/C=C\\C/C=C\\C/C=C\\CCCCCCCC(=O)OC[C@@H](CO[C@H]1O[C@H](CS(=O)(=O)O)[C@@H](O)[C@H](O)[C@H]1O)OC(=O)CCCCCCCCCCCCCCC", "method": "nucleotide incorporation / radiometric", "tested at": "10 µM", "result": "100%"}
{"compound": "CC(C)=CCC/C(C)=C/Cc1c(O)c(CC=C(C)C)c2c(c1O)C(=O)C1=C[C@H]3CC4C(C)(C)O[C@](CC=C(C)C)(C3=O)[C@]14O2", "method": "nucleotide incorporation / radiometric", "tested at": "200 µg/mL", "result": "64%"}
{"compound": "O=c1c(O)c(-c2ccc(O)c(O)c2)oc2cc(O)cc(O)c12", "method": "RT activity / ELISA", "tested at": "200 µg/mL", "result": "43.41%"}
{"compound": "CCN1c2ncc(CNc3cccc([N+](=O)[O-])c3)cc2C(=O)N(C)c2ccc(Cl)nc21", "changes": "RT-Y181C", "method": "nucleotide incorporation / radiometric", "tested at": "1 µM", "result": "72%"}
{"compound": "CC[C@H]1CN2CCc3cc(OC)c(OC)cc3[C@@H]2C[C@@H]1CC1=NCCc2cc(O)c(OC)cc21", "tested at": "400 µg/mL", "result": "10–20%"}
{"compound": "CO[C@H]1/C=C/O[C@@]2(C)Oc3c(C)c(O)c4c(c3C2=O)C(=O)C(SCCOC(=O)CCC(=O)OC[C@H]2O[C@@H](n3cc(C)c(=O)[nH]c3=O)C[C@@H]2N=[N+]=[N-])=C(NC(=O)/C(C)=C\\C=C\\[C@H](C)[C@@H]2OC(C)(C)O[C@@H]([C@@H](C)[C@H](OC(C)=O)[C@@H]1C)[C@@H]2C)C4=O", "strain or isolate": "IIIB", "method": "RT activity", "tested at": "300 µM", "result": "48%"}
{"compound": "C=C1C(=O)[C@@]23CCC4[C@@](C)(CCC[C@@]4(C)C(=O)O)C2CC[C@H]1C3", "method": "RT activity", "tested at": "200 µg/mL", "result": "66.1%"}
{"compound": "Nc1ncnc2c1ncn2CCOCP(=O)(O)O", "method": "nucleotide incorporation / radiometric", "tested at": "500 µM", "result": "0%"}
{"compound": "COc1cc(-c2c(C)c(CO)c(O[C@@H]3O[C@H](CO)[C@@H](O)[C@H](O)[C@H]3O)c3cc(OC)c(OC)cc23)ccc1O", "method": "nucleotide incorporation / radiometric", "tested at": "200 µM", "result": "0%"}
{"compound": "CCc1c(Sc2ccccn2)n(COCc2ccccc2)c(=O)[nH]c1=O", "changes": "RT-V106A", "tested at": "50 µM", "result": "60%"}
{"compound": "O=C1CSC(c2c(Cl)ncnc2Cl)N1c1nccs1", "method": "RT activity / ELISA / absorbance", "tested at": "100 µg/mL", "result": "42.16%"}
{"compound": "O=c1c(O)c(-c2ccc(O)c(O)c2)oc2cc(O)c(O)c(O)c12", "method": "nucleotide incorporation", "tested at": "2 µg/mL", "result": "90%"}
{"compound": "O=C1CSC(c2c(Cl)cncc2Cl)N1n1cnnc1", "method": "RT activity / ELISA / absorbance", "tested at": "100 µg/mL", "result": "62.03%"}
{"compound": "CC[C@H]1CN2CCc3cc(OC)c(OC)cc3[C@@H]2C[C@@H]1C[C@H]1NCCc2cc(O)c(OC)cc21", "tested at": "400 µg/mL", "result": "10–20%"}
{"compound": "O=C1CSC(c2c(F)cccc2F)N1n1cnnc1", "method": "RT activity / ELISA / absorbance", "tested at": "10 µg/mL", "result": "10.53%"}
{"compound": "CC(C)(O)[C@H]1Cc2c(O)cc(-c3ccccc3)cc2O1", "method": "RT activity / radiometric", "tested at": "200 µg/mL", "result": "7.84%"}
{"compound": "Cc1ccc(N2C(=O)CSC2c2c(Cl)ncnc2Cl)nc1", "method": "RT activity / ELISA / absorbance", "tested at": "100 µg/mL", "result": "31.44%"}
{"compound": "COC(=O)C1(O)C[C@@H](OC(=O)/C=C/c2ccc(O)c(O)c2)C(O)[C@H](OC(=O)/C=C/c2ccc(O)c(O)c2)C1", "method": "RT activity / absorbance", "tested at": "100 µg/mL", "result": "61.9%"}
{"compound": "Cc1coc(N2C(=O)CSC2c2c(Cl)ncnc2Cl)n1", "method": "RT activity / ELISA / absorbance", "tested at": "10 µg/mL", "result": "16.72%"}
{"compound": "O=C(/C=C/c1ccc(O)c(O)c1)O[C@@H]1CC(O)(C(=O)O)C[C@@H](OC(=O)/C=C/c2ccc(O)c(O)c2)C1O", "method": "RT activity / absorbance", "tested at": "100 µg/mL", "result": "54.3%"}
{"compound": "CCN1c2ncccc2C=Cc2cccnc21", "changes": "RT-K103N", "method": "nucleotide incorporation", "tested at": "1 µM", "result": "55%"}
{"compound": "O=C1CSC(c2c(Cl)ncnc2Cl)N1n1cnnc1", "method": "RT activity / ELISA / absorbance", "tested at": "10 µg/mL", "result": "37.57%"}

The last 6 rows once more:

Cc1ccc(N2C(=O)CSC2c2c(Cl)ncnc2Cl)nc1 ; method: RT activity / ELISA / absorbance ; tested at: 100 µg/mL ; result: 31.44%
COC(=O)C1(O)C[C@@H](OC(=O)/C=C/c2ccc(O)c(O)c2)C(O)[C@H](OC(=O)/C=C/c2ccc(O)c(O)c2)C1 ; method: RT activity / absorbance ; tested at: 100 µg/mL ; result: 61.9%
Cc1coc(N2C(=O)CSC2c2c(Cl)ncnc2Cl)n1 ; method: RT activity / ELISA / absorbance ; tested at: 10 µg/mL ; result: 16.72%
O=C(/C=C/c1ccc(O)c(O)c1)O[C@@H]1CC(O)(C(=O)O)C[C@@H](OC(=O)/C=C/c2ccc(O)c(O)c2)C1O ; method: RT activity / absorbance ; tested at: 100 µg/mL ; result: 54.3%
CCN1c2ncccc2C=Cc2cccnc21 ; changes: RT-K103N ; method: nucleotide incorporation ; tested at: 1 µM ; result: 55%
O=C1CSC(c2c(Cl)ncnc2Cl)N1n1cnnc1 ; method: RT activity / ELISA / absorbance ; tested at: 10 µg/mL ; result: 37.57%